From US20240199725A1 (KOREA UNIVERSITY RESEARCH AND BUSINESS FOUNDATION, published 2024)

Target: T1, COVID-19-RBD-GST (SARS-CoV-2 (COVID-19 virus), wild type)
T1 construct: also called dimeric RBD fused with a GST tag; COVID-19-RBD-GST-Alexa488 probe
Experiment: flow cytometry, variant on spheroplasts, 50 nM COVID-19 RBD-Alexa 488 antigen

B1: VH variant JS-VH 4 (other)
VH: QVQLQESGGGVVQPGESLRLSCAASGFTFEDYAMHWVRQPPGKGLEWVSLISGDGFFTHYADSVEGRFTVSRDNSKNSLYLQMNSLRAEDTAVYYCARDSFGGHLDLWGQGTLVTVSS
B1: binds.
